# Molecular target: CHR-peptide C34 (Human immunodeficiency virus type 1 group M subtype B, UniProt P04578)
# Format: binding, HIV-1
# Details: molar ratio 1:1, 10 μM in PBS pH 7.2; Fd spectrum subtracted for Fd fusions
# Experimental: All the N-peptides were diluted in ddH2O (pH 7.0) and all the C-peptides or the mixture of the N- and C-peptides were diluted in 50 mM sodium phosphate and 150 mM NaCl (PBS, pH 7.2) to a final concentration of 10 μM. The individual peptides and their mixtures were incubated in a 37° C. water bath for 0.5 h before testing. […] The α-helicity was calculated from the CD signal by dividing the mean residue ellipticity at 222 nm by the value expected for 100% helix formation (i.e., 33,000° cm^2 dmol^−1) according to previous studies. Thermal denaturation of the samples was monitored at 222 nm by applying a temperature gradient from 20° C. to 98° C. with a 2-degree interval, an equilibration time of 1.5 min, and an averaging time of 60 s. The midpoint of the thermal unfolding transition (Tm) values was calculated using Jasco software utilities as described previously.
sequence,measurement,value
IEAQQHLLQLTVWGIKQLQARILAVERYGYIPEAPRDGQAYVRKDGEWVLLSTFL [N28Fd],α-helicity of complex with C34,46.3%

# From patent US9724383B2, “Stabilized trimeric HIV-1 GP41 fusion inhibitor polypeptides comprising the N-terminal heptad repeat (NHR) and foldon (FD) trimerization motif” (New York Blood Center, Inc., priority 2009, dated 2017)
